Test results from PMC9960243, “Cytotoxic and Antileishmanial Effects of the Monoterpene β-Ocimene” (Pharmaceuticals, 2023).

Columns and labels:
[1] = tested on: Leishmania (Leishmania) amazonensis promastigotes; assay type: cell-based; details: SI = CC50 Raw 264.7/IC50
Experimental: (§1) Strains of Leishmania (Leishmania) amazonensis (IFLA/BR/67/PH8) (promastigote form) were cultivated in Schneider’s insect medium (supplemented with 10% FBS, and 1% antibiotic solution), at 26 °C, and at pH 7, in a biological oxygen demand (BOD) incubator. To transform the promastigote forms into axenic amastigotes, the temperature was increased to 32 °C and the pH of the medium was adjusted to 5.5 [14].
(§2) Promastigote and axenic amastigote growth inhibition was tested as previously described by DIAS et al.. In a 96-well plate, parasites were seeded at 10^6 parasites per well in 100 μL of supplemented Schneider medium. The parasites were treated with differing concentrations of β-ocimene (1.56–12.5 μM), and reference drugs, meglumine antimoniate (500–40,000 μM) and amphotericin B (0.062–0.5 μM). The plates were incubated in a BOD incubator at 26 °C for 72 h. Afterwards, 10 µL of MTT (5 mg/mL) was added to each well, and the plate was incubated again for 4 h, when 50 µL of 10% SDS was added. Absorbances were then measured using an ELISA plate reader (BioSystems model ELx800, Curitiba, PR, Brazil) at 540 nm. The negative control consisted of Schneider medium with 0.5% DMSO and was considered as 0% inhibition.

[2] = tested on: Leishmania (Leishmania) amazonensis axenic amastigotes; assay type: cell-based; details: SI = CC50 Raw 264.7/EC50
Experimental: as §1, §2

| Compound | Promastigotes SI [1] | Axenic Amastigotes SI [2] |
| --- | --- | --- |
| Meglumine antimoniate [reference compound] | 0.73 | 9.16 |
| C=C/C(C)=C/CC=C(C)C [β-ocimene, beta-3,7-dimethyl-1,3,6-octatriene] | 41.18 | 102.23 |
| C[C@@H]1[C@H](O)[C@@H](C)/C=C/C=C/C=C/C=C/C=C/C=C/C=C/[C@H](O[C@@H]2O[C@H](C)[C@@H](O)[C@H](N)[C@@H]2O)C[C@@H]2O[C@](O)(C[C@@H](O)C[C@@H](O)[C@H](O)CC[C@@H](O)C[C@@H](O)CC(=O)O[C@H]1C)C[C@H](O)[C@H]2C(=O)O [Amphotericin B, reference compound] | 1.11 | 0.76 |
